Anti-infective test results gathered from many reports (values: NIAID ChemDB through PubChem).

Shared fields: whole-cell or culture tests; species: HIV-2; read by: cytopathic effect / MTT; read-out: EC50

ECn is the concentration giving n% inhibition of infection, replication or growth. Rows are shuffled and stem from different studies.

{"SMILES": "C=C(C)[C@@H]1CC[C@]2(C(=O)NCCCCCCCC(=O)N[C@@H](CC(C)C)[C@@H](O)CC(=O)O)CC[C@]3(C)[C@H](CC[C@@H]4[C@@]5(C)CC[C@H](O)C(C)(C)[C@@H]5CC[C@]43C)[C@@H]12", "strain": "ROD", "cells": "MT-4", "value": ">10 µM"}
{"SMILES": "CCC(C)Oc1nc(Cc2ccccc2)c(C)c(=O)[nH]1", "strain": "ROD", "cells": "MT-4", "value": ">200 µM"}
{"SMILES": "O=C(O)Cc1ccc(O)c(O)c1", "strain": "ROD", "cells": "MT-4", "value": "7 µg/mL"}
{"SMILES": "CC(C)CCC[C@@H](C)[C@H]1CC[C@H]2[C@@H]3CC[C@H]4C[C@@H](CCC=C(c5cc(Cl)c(OCc6ccc(C(=O)O)cc6)c(C(=O)O)c5)c5cc(Cl)c(OCc6ccc(C(=O)O)cc6)c(C(=O)O)c5)CC[C@]4(C)[C@H]3CC[C@]12C", "strain": "ROD", "cells": "MT-4", "value": "55 µM"}
{"SMILES": "Cc1[nH]c(=S)n(Nc2cccc(Br)c2)c1-c1ccccc1", "strain": "ROD", "cells": "MT-4", "value": ">44.24 µM"}
{"SMILES": "O=C(O)CCc1ccc(O)c(O)c1", "strain": "ROD", "cells": "MT-4", "value": "7 µg/mL"}
{"SMILES": "CC1=C(N)C(C)(C)N(Cc2ccccc2)S1(=O)=O", "strain": "ROD", "cells": "MT-4", "value": ">125 µg/mL"}
{"SMILES": "Nc1nc(N2CCCCC2)c2ncn(CCOCP(=O)(O)O)c2n1", "strain": "ROD", "cells": "CEM", "value": ">4 µg/mL"}
{"SMILES": "OCC(CO)OCc1cc(I)c(F)cc1F", "cells": "CEM", "value": ">500 µg/mL"}
{"SMILES": "CC(=O)c1ccc(C)cc1NC(C(N)=O)c1c(Cl)cccc1Cl", "strain": "ROD", "cells": "MT-4", "value": ">710 µM"}
{"SMILES": "Cc1cccc(Nc2nn3c(=O)c4ccccc4nc3s2)c1", "strain": "ROD", "cells": "MT-4", "value": "32 µg/mL"}
{"SMILES": "O=C(O)c1cc(O)c(O)c(O)c1", "strain": "ROD", "cells": "MT-4", "value": "12 µg/mL"}
{"SMILES": "O=c1cc(Cc2ccccc2)nc(OC2CCCCC2)[nH]1", "strain": "ROD", "cells": "MT-4", "value": ">200 µM"}
{"SMILES": "Cc1cccc(Nn2cnc(C)c2-c2ccccc2)c1", "strain": "ROD", "cells": "MT-4", "value": ">27.04 µM"}
{"SMILES": "COc1ccc(CNC2=CS(=O)(=O)OC2(C)C)c(OC)c1", "strain": "ROD", "cells": "MT-4", "value": ">125 µg/mL"}
{"SMILES": "CC(C)CCC[C@@H](C)[C@H]1CC[C@H]2[C@@H]3CC[C@H]4C[C@@H](NC(=O)C=C(c5cc(Cl)c(O)c(C(=O)O)c5)c5cc(Cl)c(O)c(C(=O)O)c5)CC[C@]4(C)[C@H]3CC[C@]12C", "strain": "ROD", "cells": "MT-4", "value": "9.8 µM"}
{"SMILES": "CCc1c(Cc2ccccc2)nc(OC(C)C)[nH]c1=O", "strain": "ROD", "cells": "MT-4", "value": ">200 µM"}
{"SMILES": "CCc1[nH]c(=S)n(Nc2cccc(C)c2)c1-c1ccccc1", "strain": "ROD", "cells": "MT-4", "value": ">53.55 µM"}
{"SMILES": "Nc1nc2c(ncn2CCC(CO)CO)c(=O)[nH]1", "strain": "ROD", "cells": "MT-4", "value": ">493 µM"}
{"SMILES": "O=[N+]([O-])c1cc(COCCO)c(F)cc1F", "cells": "CEM", "value": ">500 µg/mL"}
{"SMILES": "C[C@H](Cn1cnc2c(N(C)C)ncnc21)OCP(=O)(O)O", "strain": "ROD", "cells": "CEM", "value": "0.8 µg/mL"}
{"SMILES": "CCc1c(Sc2ccccc2)n(COCc2ccccc2)c(=O)[nH]c1=O", "strain": "EHO", "cells": "MT-4", "value": ">30 µM"}
{"SMILES": "O=S(=O)(O)c1cc(Cl)cc(Cc2cc(Cl)cc(S(=O)(=O)O)c2O)c1O", "strain": "ROD", "cells": "MT-4", "value": ">100 µg/mL"}
{"SMILES": "CC(C)CCC[C@@H](C)[C@H]1CC[C@H]2[C@@H]3CC[C@H]4C[C@@H](CCC=C(c5cc(Cl)c(O)c(C(=O)O)c5)c5cc(Cl)c(O)c(C(=O)O)c5)CC[C@]4(C)[C@H]3CC[C@]12C", "strain": "ROD", "cells": "MT-4", "value": "4 µg/mL"}
{"SMILES": "Cc1[nH]c(=S)n(Nc2cccc(Cl)c2)c1C", "strain": "ROD", "cells": "MT-4", "value": ">259 µM"}
{"SMILES": "CC(C)CCC[C@@H](C)[C@H]1CC[C@H]2[C@@H]3CC[C@H]4C[C@@H](CCC=C(c5cc(Cl)c(O)c(C(=O)O)c5)c5cc(Cl)c(O)c(C(=O)O)c5)CC[C@]4(C)[C@H]3CC[C@]12C", "strain": "ROD", "cells": "MT-4", "value": "5.1 µM"}
{"SMILES": "Nc1nc(NC2CC2)c2ncn(CCOCP(=O)(O)O)c2n1", "strain": "ROD", "cells": "MT-4", "value": "0.1 µg/mL"}
{"SMILES": "COc1ncnc(NS(=O)(=O)c2ccc(N=C3C(=O)N(CN4CCCC4)c4ccc(C)cc43)cc2)c1OC", "strain": "ROD", "cells": "MT-4", "value": ">21.1 µg/mL"}
{"SMILES": "O=C(O)/C=C/c1ccc(O)c(O)c1", "strain": "ROD", "cells": "MT-4", "value": "6 µg/mL"}
{"SMILES": "CC(C)CCC[C@@H](C)[C@H]1CC[C@H]2[C@@H]3CC[C@H]4C[C@@H](NC(=O)CC=C(c5cc(Cl)c(O)c(C(=O)O)c5)c5cc(Cl)c(O)c(C(=O)O)c5)CC[C@]4(C)[C@H]3CC[C@]12C", "strain": "ROD", "cells": "MT-4", "value": "14.2 µM"}
{"SMILES": "CC1(Cc2ccccc2)OS(=O)(=O)C=C1N", "strain": "ROD", "cells": "MT-4", "value": ">125 µg/mL"}
{"SMILES": "Cc1cc(COCCO)c(F)cc1F", "cells": "CEM", "value": ">500 µg/mL"}
{"SMILES": "Cc1[nH]c(=S)n(Nc2ccccc2)c1-c1ccccc1", "strain": "ROD", "cells": "MT-4", "value": ">191 µM"}
{"SMILES": "COc1ncnc(NS(=O)(=O)c2ccc(N=C3C(=O)N(CN4CCCCC4)c4ccc(C)cc43)cc2)c1OC", "strain": "ROD", "cells": "MT-4", "value": ">12.6 µg/mL"}
{"SMILES": "OCCOCc1ccc(F)cc1F", "cells": "CEM", "value": ">500 µg/mL"}
{"SMILES": "COc1ncnc(NS(=O)(=O)c2ccc(N=C3C(=O)N(CN4CCOCC4)c4ccccc43)cc2)c1OC", "strain": "ROD", "cells": "MT-4", "value": ">2 µg/mL"}
{"SMILES": "Oc1cccc(O)c1O", "strain": "ROD", "cells": "MT-4", "value": "8 µg/mL"}
{"SMILES": "COc1ncnc(NS(=O)(=O)c2ccc(N=C3C(=O)N(CN4CCCC4)c4ccccc43)cc2)c1OC", "strain": "ROD", "cells": "MT-4", "value": ">2 µg/mL"}
{"SMILES": "Nc1nc(N2CCCC2)c2ncn(CCOCP(=O)(O)O)c2n1", "strain": "ROD", "cells": "CEM", "value": "1.65 µg/mL"}
{"SMILES": "Cc1ncn(Nc2cccc(Cl)c2)c1-c1ccccc1", "strain": "ROD", "cells": "MT-4", "value": "1.65 µM"}
{"SMILES": "CC1(C)C(N)=CS(=O)(=O)N1Cc1cccc(Cl)c1", "strain": "ROD", "cells": "MT-4", "value": ">125 µg/mL"}
{"SMILES": "Cc1c(Cc2ccccc2)nc(OC2CCCC2)[nH]c1=O", "strain": "ROD", "cells": "MT-4", "value": ">200 µM"}
{"SMILES": "Nc1nc(NC2CCCCC2)c2ncn(CCOCP(=O)(O)O)c2n1", "strain": "ROD", "cells": "CEM", "value": ">20 µg/mL"}

Again, the opening 2 rows:

{"SMILES": "C=C(C)[C@@H]1CC[C@]2(C(=O)NCCCCCCCC(=O)N[C@@H](CC(C)C)[C@@H](O)CC(=O)O)CC[C@]3(C)[C@H](CC[C@@H]4[C@@]5(C)CC[C@H](O)C(C)(C)[C@@H]5CC[C@]43C)[C@@H]12", "strain": "ROD", "cells": "MT-4", "value": ">10 µM"}
{"SMILES": "CCC(C)Oc1nc(Cc2ccccc2)c(C)c(=O)[nH]1", "strain": "ROD", "cells": "MT-4", "value": ">200 µM"}